# Test results taken from patent US12577196B2 (priority 2019, dated 2026).
# Assays:
# [1] = system: Saccharomyces cerevisiae ATCC-2601 Fluconazole resistant (20 G); assay: microbe, parasite or virus in culture; conditions: ATCC2601
# [2] = system: Candida albicans NTCT-885-653 Voriconazole resistant (20 G); assay: microbe, parasite or virus in culture
smiles,measurement,setting,value
"Cc1ccc(C(C)C)cc1OC(=O)C[N+](C)(C)CCCCCCCCCC[N+](C)(C)CC(=O)Oc1cc(C(C)C)ccc1C [Formula IV, N1,N10-bis(2-(5-isopropyl-2-methylphenoxy)−2-oxoethyl)-N1,N1,N10,N10-tetramethyldecane-1,10-diaminium dichloride]",MIC,[1],0.98 µg/mL
"Cc1ccc(C(C)C)c(OC(=O)C[N+](C)(C)CCCCCCCCCC[N+](C)(C)CC(=O)Oc2cc(C)ccc2C(C)C)c1 [Formula V, N1,N10-bis(2-(2-isopropyl-5-methylphenoxy)−2-oxoethyl)-N1,N1,N10,N10-tetramethyldecane-1,10-diaminium dichloride]",MIC,[1],0.98 µg/mL
same,MIC,[2],0.98 µg/mL
